Reference: PubChem BioAssay AID624273 (Broad Institute, 2012)
The list shows a part of the results, in another mix than the full data. Results with a measured potency or affinity are listed apart. Active and inactive are the calls of the source. The rule behind the calls is not given here.

Amino acid sequences for entries named in this document (tags omitted). A change or cut given only in a name is not applied to a line headed by its entry.
UniProt P9WQ59: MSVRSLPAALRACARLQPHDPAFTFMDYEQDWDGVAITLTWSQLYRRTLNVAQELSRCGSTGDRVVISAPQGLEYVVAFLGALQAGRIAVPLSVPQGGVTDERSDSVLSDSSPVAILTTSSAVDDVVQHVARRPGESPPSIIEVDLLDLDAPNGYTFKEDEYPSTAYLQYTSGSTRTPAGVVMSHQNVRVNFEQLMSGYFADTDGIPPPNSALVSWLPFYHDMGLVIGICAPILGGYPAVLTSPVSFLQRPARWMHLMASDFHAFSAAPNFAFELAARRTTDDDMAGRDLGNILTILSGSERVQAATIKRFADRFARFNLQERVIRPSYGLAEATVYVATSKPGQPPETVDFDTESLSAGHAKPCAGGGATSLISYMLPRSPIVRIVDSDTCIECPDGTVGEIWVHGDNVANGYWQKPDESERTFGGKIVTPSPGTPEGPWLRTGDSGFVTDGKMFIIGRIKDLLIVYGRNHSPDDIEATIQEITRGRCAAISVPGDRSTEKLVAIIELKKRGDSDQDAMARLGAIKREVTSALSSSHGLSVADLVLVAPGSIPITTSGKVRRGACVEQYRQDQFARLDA

Target: Long-chain-fatty-acid--AMP ligase FadD28 (Mycobacterium tuberculosis (strain ATCC 25618 / H37Rv)) (UniProt P9WQ59)
Experiment: inhibitors of FadD28 bisubstrate probe binding, dose response, biochemical, fluorescence polarization, cherry-pick (AID 624273)
Conditions: at 50 µM (top of the series)

Compound | activity change, negative = inhibition
Nc1cccc2ccc([As](=O)(O)O)cc12 | inactive: -12.9%
CCN(/C(=N/P(=O)(N1CCOCC1)N1CCOCC1)N1CCOCC1)c1ccc(OC)cc1 | inactive: -7.66%
